Pooled drug test results. Numbers come from NIAID ChemDB, via PubChem.

All rows: tests in culture; organism: Aspergillus niger; method: agar diffusion / agar; measure: zone

Blank or dashed fields: not listed here. Lines come from different laboratories, so protocols vary. Zone: diameter of growth inhibition.

structure | strain or isolate | tested at | value
CC(=NNC(=O)c1snnc1C(F)(F)F)c1ccccc1 | MTCC 1344 | 150 µg/mL | 0 mm
Cc1ccc(-c2c(NCS(=O)(=O)c3ccc(C)cc3)oc3[nH]c(=O)[nH]c(=O)c23)cc1 | - | 100 µg/mL | 0 mm
O=C(CNc1ccc(Cl)cc1)COc1ccc(-c2nc(-c3ccccc3)c(-c3ccccc3)s2)cc1 | ATCC 16404 | 100 µg/mL | 24 mm
Cc1[nH]n(C(=O)c2sc3ccc(Cl)cc3c2Cl)c(=O)c1N=Nc1ccccc1[N+](=O)[O-] | ATCC 9029 | 40 µg/mL | 10 mm
Cc1c(Cc2ccc(Cl)cc2)nc(SCCN2CCOCC2)[nH]c1=O | NRRL 599 | 200 µg/disc | <10 mm
C=C1CC[C@@H](OC(C)=O)[C@]2(C)[C@H](OC(C)=O)[C@H](OC(=O)CC(C)C)[C@H](OC(C)=O)[C@@]3(CO3)[C@H]2[C@@H](OC(C)=O)[C@@]2(O)[C@H](C)C(=O)O[C@H]2[C@H]1Cl | - | 200 µg/mL | 10 mm
Cc1[nH]n(C(=O)c2sc3ccc(Cl)cc3c2Cl)c(=O)c1N=Nc1c(Br)cc(Br)cc1Br | ATCC 9029 | 40 µg/mL | 18 mm
O=C(CNc1nncs1)COc1ccc(-c2nc(-c3ccccc3)c(-c3ccccc3)s2)cc1 | ATCC 16404 | 100 µg/mL | 20 mm
COc1ccc2nc(Cl)c(C3OC(c4sc5ccc(Cl)cc5c4Cl)=NN3C(C)=O)cc2c1 | ATCC 9029 | 40 µg/mL | 16 mm
CCc1c(Cc2ccc(C)cc2)nc(SCCN2CCOCC2)[nH]c1=O | NRRL 599 | 200 µg/disc | <10 mm
C[C@H]1[C@H](O)[C@@H](C)/C=C/C=C/C=C/C=C/C=C/C=C/C=C/[C@H](O[C@@H]2O[C@H](C)[C@@H](O)[C@H](N)[C@@H]2O)C[C@@H]2O[C@](O)(C[C@@H](O)C[C@@H](O)CC[C@H](O)[C@@H](O)C[C@@H](O)CC(=O)O[C@H]1C)C[C@H](O)[C@H]2C(=O)O | - | 1000 µg/mL | 15.5 mm
C[C@@H]1O[C@@H](O[C@@H]2[C@@H](O)[C@H](OCCc3ccc(O)c(O)c3)O[C@H](CO)[C@H]2OC(=O)/C=C/c2ccc(O)c(O)c2)[C@H](O)[C@H](O)[C@H]1O | ATCC64958 | 100 µg/disc | 5.5 mm
O=C(Cc1ccc(-c2nc(-c3ccccc3)c(-c3ccccc3)s2)cc1)CN1CCCC1 | ATCC 16404 | 100 µg/mL | 21 mm
Cc1[nH]n(C(=O)c2sc3ccc(Cl)cc3c2Cl)c(=O)c1N=Nc1cccc([N+](=O)[O-])c1 | ATCC 9029 | 40 µg/mL | 10 mm
O=C(CNc1ccc(Cl)cc1)Cc1ccc(-c2nc(-c3ccccc3)c(-c3ccccc3)s2)cc1 | ATCC 16404 | 100 µg/mL | 19 mm
O=C(NN=C1CCCCCC1)c1snnc1C(F)(F)F | MTCC 1344 | 150 µg/mL | 0 mm
Cc1ccc(S(=O)(=O)CNc2oc3[nH]c(=O)[nH]c(=O)c3c2-c2ccc(Cl)cc2)cc1 | - | 100 µg/mL | 6 mm
Cc1[nH]n(C(=O)c2sc3ccc(Cl)cc3c2Cl)c(=O)c1N=Nc1ccc(F)cc1 | ATCC 9029 | 40 µg/mL | 16 mm
C=C1CC[C@H](OC(C)=O)[C@@]2(C)[C@@H](OC(=O)CC(C)C)C[C@@H](OC(C)=O)[C@]3(CO3)[C@@H]2[C@H](OC(C)=O)[C@]2(O)[C@@H](C)C(=O)O[C@H]2[C@H]1Cl | - | 200 µg/mL | 6 mm
NC(=S)c1ccc(OC(=O)CN2CCCC2)cc1 | ATCC 16404 | 100 µg/mL | 24 mm
CC(C)c1ccc2c(c1)CCC1C(C)(C)[C@@H](O)CC[C@]21C | ATCC64958 | 100 µg/disc | 25.3 mm
CC(=O)N1N=C(c2sc3ccc(Cl)cc3c2Cl)OC1c1cccc(Oc2ccccc2)c1 | ATCC 9029 | 40 µg/mL | 13 mm
CCc1c(Cc2ccc(C)cc2)[nH]c(=S)[nH]c1=O | NRRL 599 | 200 µg/disc | <10 mm
CC(=NNC(=O)c1snnc1C(F)(F)F)c1ccc([N+](=O)[O-])cc1 | MTCC 1344 | 150 µg/mL | 0 mm
CCc1c(Cc2ccc(OC)c(OC)c2)nc(SCCN2CCCC2)[nH]c1=O | NRRL 599 | 200 µg/disc | 31 mm
c1ccc(-c2nc(-c3ccc(N4CCCCC4)cc3)sc2-c2ccccc2)cc1 | ATCC 16404 | 100 µg/mL | 19 mm
CC(=O)N1N=C(c2sc3ccc(Cl)cc3c2Cl)OC1c1cc2cc(C)ccc2nc1Cl | ATCC 9029 | 40 µg/mL | 11 mm
NC(=S)c1ccc(OC(=O)CNc2ccc(Cl)cc2)cc1 | ATCC 16404 | 100 µg/mL | 19 mm
Cc1ccc(S(=O)(=O)CNc2oc3[nH]c(=O)[nH]c(=O)c3c2-c2ccc(F)cc2)cc1 | - | 100 µg/mL | 5 mm
O=C(O)c1cc(O)c(O)c(O)c1 | ATCC64958 | 100 µg/disc | 28.9 mm

3 of the rows above, restated:

structure	strain or isolate	tested at	value
c1ccc(-c2nc(-c3ccc(N4CCCCC4)cc3)sc2-c2ccccc2)cc1	ATCC 16404	100 µg/mL	19 mm
C[C@H]1[C@H](O)[C@@H](C)/C=C/C=C/C=C/C=C/C=C/C=C/C=C/[C@H](O[C@@H]2O[C@H](C)[C@@H](O)[C@H](N)[C@@H]2O)C[C@@H]2O[C@](O)(C[C@@H](O)C[C@@H](O)CC[C@H](O)[C@@H](O)C[C@@H](O)CC(=O)O[C@H]1C)C[C@H](O)[C@H]2C(=O)O	-	1000 µg/mL	15.5 mm
Cc1ccc(S(=O)(=O)CNc2oc3[nH]c(=O)[nH]c(=O)c3c2-c2ccc(F)cc2)cc1	-	100 µg/mL	5 mm